Pooled drug test results. Numbers come from NIAID ChemDB, via PubChem.

Common to all: target-level tests; species: Herpes simplex virus 1; target: DNA polymerase; read-out: IC50

Lines come from different laboratories, so protocols vary.

compound,value
O=C(O)C(Br)(Br)P(=O)(O)O,>100 µM
CC(O)(C(=O)O)P(=O)(O)O,>500 µM
COc1ccc(P(=O)(O)CC(=O)O)cc1,150 µg/mL
O=P(O)(O)C(O)P(=O)(O)O,120 µM
O=P(O)(O)C(Br)(Br)P(=O)(O)O,>100 µM
O=C(O)P(=O)(O)Oc1ccccc1,10 µM
COP(=O)(O)CC(=O)O,19.9 µg/mL
O=C(O)C(F)P(=O)(O)O,2.5 µM
COC(=O)[C@H]1[C@H](O)[C@@H](C)[C@@H](O)[C@](C)(O)/C=C(\C)C2=C3C(=C(C)C(=O)c4c(O)c(c(C)c(OC(C)=O)c43)NC(=O)/C(C)=C/C=C\[C@@H](C)C(O)[C@@H](C)[C@H]1O)OCO2,100 µM
O=C(O)C(F)(Br)P(=O)(O)O,37 µM
CCCOP(=O)(O)CC(=O)O,200 µg/mL
O=P(O)(O)P(=O)(O)O,150 µM
O=C(O)C(F)(F)P(=O)(O)O,18 µM
O=C(CP(=O)(O)O)OC1CCCCC1,49 µg/mL
Cc1ccc(OP(=O)(O)C(=O)O)cc1,35 µM

2 of the rows above, restated:

{"compound": "CC(O)(C(=O)O)P(=O)(O)O", "value": ">500 µM"}
{"compound": "O=C(CP(=O)(O)O)OC1CCCCC1", "value": "49 µg/mL"}

ICn: concentration for n% inhibition.